Taken from: PubChem BioAssay AID1224833 (University of Georgia, 2016)
This is a random part of about 12,000 reagents tested. In the full data, about 5,600 (46%) are marked active. 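Active calls cover z-scores past 1 in both directions, so they include lowered as well as raised rotavirus replication.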 Reagent sequences are not shown.

- Test: 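Host factors restraining rotavirus as candidate antiviral genes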 (primary screen)
- Cell system: monkey MA104 kidney cells
- Reagents: siRNA pool against human genes, 50 nM
- Time to read-out: 48 h knock-down before infection; read 24 h after infection
- Challenge: infection with rotavirus strain RV3 two days after transfection; infectious dose for this stage not given
- Read-out: 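Rotavirus antigen per well by fluorescent immunoassay, normalised to non-targeting control wells on each plate and given as a standard z-score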
- Reading the numbers: z-score vs non-targeting control: higher = more rotavirus replication than with non-targeting control
- Call rule: In these data the active calls have z-score vs non-targeting control at about -1 or lower, or at about 1 or higher
- Calls: active = z-score beyond 1 either way; inactive = z-score within 1 of zero

gene | z-score vs non-targeting control | Outcome
FAN1 (FANCD2 and FANCI associated nuclease 1) | 0.416 | inactive
TSPAN18 (tetraspanin 18) | 1.39 | active
IMPG2 (interphotoreceptor matrix proteoglycan 2) | -0.248 | inactive
CCDC181 (coiled-coil domain containing 181) | 1.23 | active
LZTFL1 (leucine zipper transcription factor like 1) | -1.17 | active
CD300A (CD300a molecule) | -0.217 | inactive
CRYZL1 (crystallin zeta like 1) | -2.65 | active
MBD3 (methyl-CpG binding domain protein 3) | 0.202 | inactive
TAF10 (TATA-box binding protein associated factor 10) | 0.991 | inactive
ANP32D (acidic nuclear phosphoprotein 32 family member D) | -0.0974 | inactive
POLR3F (RNA polymerase III subunit F) | 0.398 | inactive
POGLUT1 (protein O-glucosyltransferase 1) | -1.81 | active
UBASH3A (ubiquitin associated and SH3 domain containing A) | -0.662 | inactive
SYNC (syncoilin, intermediate filament protein) | -0.286 | inactive
ZNF831 (zinc finger protein 831) | -0.623 | inactive
MED10 (mediator complex subunit 10) | 1.38 | active
SSTR2 (somatostatin receptor 2) | 0.579 | inactive
TEX11 (testis expressed 11) | -0.0827 | inactive
SLC16A4 | 1.53 | active
HSFY1 (heat shock transcription factor Y-linked 1) | 1.17 | active
OR3A1 (olfactory receptor family 3 subfamily A member 1) | 0.641 | inactive
VSIG1 (V-set and immunoglobulin domain containing 1) | 1.83 | active
C4A (complement C4A (Chido/Rodgers blood group)) | -0.534 | inactive
WIPF2 (WAS/WASL interacting protein family member 2) | 0.945 | inactive
C12orf76 (chromosome 12 open reading frame 76) | -1.09 | active
CXCL10 (C-X-C motif chemokine ligand 10) | 0.113 | inactive
KIFC1 (kinesin family member C1) | 1.36 | active
GABBR1 (gamma-aminobutyric acid type B receptor subunit 1) | -0.591 | inactive
TMEM59L (transmembrane protein 59 like) | -1.01 | active
ABCD2 (ATP binding cassette subfamily D member 2) | -0.853 | inactive
STEAP4 (STEAP4 metalloreductase) | 1.87 | active
SLBP (stem-loop histone mRNA binding protein) | 0.128 | inactive
DELE1 (DAP3 binding cell death enhancer 1) | 0.527 | inactive
HYCC2 (hyccin PI4KA lipid kinase complex subunit 2) | 1.82 | active
B3GALT4 (beta-1,3-galactosyltransferase 4) | -1.92 | active
PRAMEF10 (PRAME family member 10) | -1.69 | active
CREBZF (CREB/ATF bZIP transcription factor) | -2.03 | active
USP46 (ubiquitin specific peptidase 46) | 0.725 | inactive
AKR1A1 (aldo-keto reductase family 1 member A1) | 0.5 | inactive
TIMP3 (TIMP metallopeptidase inhibitor 3) | -1.55 | active
RAB42 (RAB42, member RAS oncogene family) | -1.72 | active
EIF4A2 (eukaryotic translation initiation factor 4A2) | 0.936 | inactive
PEX16 (peroxisomal biogenesis factor 16) | -0.252 | inactive
SLC7A2 | -1.27 | active
LRRC57 (leucine rich repeat containing 57) | -1.19 | active
OR4F5 (olfactory receptor family 4 subfamily F member 5) | -0.155 | inactive
TMEM217 (transmembrane protein 217) | 0.393 | inactive
BIN2 (bridging integrator 2) | -0.889 | inactive
HBB (hemoglobin subunit beta) | -0.923 | inactive
KISS1R (KISS1 receptor) | -0.693 | inactive
LIMS1 (LIM zinc finger domain containing 1) | -1.56 | active
DLL4 (delta like canonical Notch ligand 4) | 1.19 | active
WFDC3 (WAP four-disulfide core domain 3) | -0.797 | inactive
PRSS42P (serine protease 42, pseudogene) | 1.16 | active
SEMA3F (semaphorin 3F) | 1.68 | active
TREML4 (triggering receptor expressed on myeloid cells like 4) | 1.47 | active
CAT (catalase) | 0.715 | inactive
TPPP (tubulin polymerization promoting protein) | -0.761 | inactive
ADGRB2 (adhesion G protein-coupled receptor B2) | 2.27 | active
SUDS3 (SIN3A corepressor complex component SDS3) | 0.124 | inactive
CHIC2 (cysteine rich hydrophobic domain 2) | 0.12 | inactive
ARL6 (ARF like GTPase 6) | -0.68 | inactive
FUBP3 (far upstream element binding protein 3) | -0.964 | inactive
SYN3 (synapsin III) | -0.597 | inactive

Copied from the entries so far (5 entries):
gene | z-score vs non-targeting control | Outcome
SLC7A2 | -1.27 | active
LRRC57 (leucine rich repeat containing 57) | -1.19 | active
OR4F5 (olfactory receptor family 4 subfamily F member 5) | -0.155 | inactive
TMEM217 (transmembrane protein 217) | 0.393 | inactive
BIN2 (bridging integrator 2) | -0.889 | inactive

The listing continues.
gene | z-score vs non-targeting control | Outcome
CSPP1 (centrosome and spindle pole associated protein 1) | -1.12 | active
CEP120 (centrosomal protein 120) | 1.06 | active
GKN1 (gastrokine 1) | 1.14 | active
TNFSF18 (TNF superfamily member 18) | -0.335 | inactive
MX2 (MX dynamin like GTPase 2) | -0.932 | inactive
RPS9 (ribosomal protein S9) | 0.309 | inactive
CIAO2A (cytosolic iron-sulfur assembly component 2A) | 3.53 | active
CLMN (calmin) | -0.044 | inactive
KRTAP3-1 (keratin associated protein 3-1) | -2.61 | active
BCAS1 (brain enriched myelin associated protein 1) | -0.0986 | inactive
PIWIL4 (piwi like RNA-mediated gene silencing 4) | -0.113 | inactive
DNAH9 (dynein axonemal heavy chain 9) | 0.3 | inactive
FOXP4 (forkhead box P4) | -1.55 | active
TFEB (transcription factor EB) | -0.985 | inactive
TPRKB (TP53RK binding protein) | -0.492 | inactive
RIN2 (Ras and Rab interactor 2) | -1.81 | active
KDM8 (lysine demethylase 8 (putative)) | -0.687 | inactive
GHDC (GH3 domain containing) | 0.636 | inactive
EIF3D (eukaryotic translation initiation factor 3 subunit D) | -1.53 | active
MOBP (myelin associated oligodendrocyte basic protein) | -1.06 | active
DDHD2 (DDHD domain containing 2) | -1.35 | active
OPN1LW (opsin 1, long wave sensitive) | -1.07 | active
FADS3 (fatty acid desaturase 3) | -1.27 | active
PMS1 (PMS1 homolog 1, mismatch repair system component) | -1.55 | active
ALKBH7 (alkB homolog 7, RNA demethylase) | 0.0837 | inactive
HES6 (hes family bHLH transcription factor 6) | 2 | active
BAIAP3 (BAI1 associated protein 3) | -0.27 | inactive
CXCL2 (C-X-C motif chemokine ligand 2) | -1.24 | active
LIPF (lipase F, gastric type) | -1.4 | active
PEA15 (proliferation and apoptosis adaptor protein 15) | -1.06 | active
TLN1 (talin 1) | -1.35 | active
ALG5 (ALG5 dolichyl-phosphate beta-glucosyltransferase) | 1.55 | active
ARRDC3 (arrestin domain containing 3) | -1.58 | active
SASH1 (SAM and SH3 domain containing 1) | -0.186 | inactive
CNRIP1 (cannabinoid receptor interacting protein 1) | -0.28 | inactive
FOXR2 (forkhead box R2) | 0.897 | inactive
BLNK (B cell linker) | -0.872 | inactive
TOM1L1 (target of myb1 like 1 membrane trafficking protein) | 0.222 | inactive
POP5 (POP5 ribonuclease P/MRP subunit) | 1.87 | active
SLC39A7 | -0.603 | inactive
ACAD9 (acyl-CoA dehydrogenase family member 9) | 1.44 | active
PROSER1 (proline and serine rich 1) | -0.765 | inactive
TMEM121 (transmembrane protein 121) | -0.821 | inactive
TCF23 (transcription factor 23) | -0.777 | inactive
KLF10 (KLF transcription factor 10) | -2.69 | active
GLE1 (GLE1 RNA export mediator) | -1.49 | active
